≈ marks a conversion by molar mass, not a printed value.
Legend:
Alternaria alternata = assay: 3 day MIC, broth microdilution in 25% PDB; assay type: cell-based; settings: 72 h, read-out: 3 day MIC
Description: (§1) Stock solutions (concentrations of between 4,000 μg/mL to 10,000 μg/mL; stored at −18° C.) of the above antifungals were prepared in dimethyl sulfoxide (DMSO). The stock solutions were further diluted into sterile 25% potato dextrose broth (PDB) so that the diluted solutions could be used for the antifungal susceptibility studies. This way, a typical microdilution study would reach a final ratio of about 0.5-2% v/v of DMSO in 25% PDB.
Spore inocula were prepared in sterile distilled water with 0.1% Tween® 20 (a polysorbate surfactant), and a hemocytometer was used to determine the spore density. Typically, the spore inoculum was prepared fresh prior to each study, and the inoculum was appropriately diluted to a final concentration of 0.4-1×10^5 spores/mL or colony-forming unit (CFU)/mL in each study. The spore suspension can be stored in a refrigerator at 4° C. for up to one week.
The studies were performed in flat bottom, 96-well microtiter plates (Greiner Bio-One, Frickenhausen, Germany).
(§2) Plates sealed with clear polyester film (VWR, Radnor, Pa.) were incubated at a temperature of about 25° C. The progress of fungal growth was monitored at 48 hours and 72 hours.

Fusarium oxysparum ST-33 = assay: 3 day MIC, broth microdilution in 25% PDB; assay type: cell-based; settings: ST33, 72 h, read-out: 3 day MIC
Description: as §1
Spore inocula were prepared in sterile distilled water with 0.1% Tween® 20 (a polysorbate surfactant), and a hemocytometer was used to determine the spore density. […]
The minimal inhibitory concentrations (MICs) for individual antifungal agents were determined by following a modified broth microdilution protocol CLSI (Clinical and Laboratory Standards Institute) M38-A2 [Clinical and Laboratory Standards Institute (2008) Reference method for broth dilution antifungal susceptibility testing of filamentous fungi—2nd edition: Approved Standard M38-A2, CLSI, Wayne, Pa.] where 25% potato dextrose broth (PDB) was used as the medium. […]
as §2

SMILES: OB1OCc2ccccc21 [Compound B0, 2-(hydroxymethyl)-benzene boronic acid hemiester]
- MIC (Alternaria alternata): 12.5 µg/mL (≈ 93.3 µM)
- MIC (Fusarium oxysparum ST-33): 1 µg/mL (≈ 7.47 µM)

— US10160867B2, “Benzoxaborole-containing coating resistant to cellulose-supportable fungus” (THE PENN STATE RESEARCH FOUNDATION, priority 2015, dated 2018)
